The values below come from patent publication US7625875B2 (priority 2002, dated 2009).

Protein sequences, listed by entry. Tags and fused reporters are not part of them. Residues count along the entry.
UniProt P19711, 3270-3988 limits assumed: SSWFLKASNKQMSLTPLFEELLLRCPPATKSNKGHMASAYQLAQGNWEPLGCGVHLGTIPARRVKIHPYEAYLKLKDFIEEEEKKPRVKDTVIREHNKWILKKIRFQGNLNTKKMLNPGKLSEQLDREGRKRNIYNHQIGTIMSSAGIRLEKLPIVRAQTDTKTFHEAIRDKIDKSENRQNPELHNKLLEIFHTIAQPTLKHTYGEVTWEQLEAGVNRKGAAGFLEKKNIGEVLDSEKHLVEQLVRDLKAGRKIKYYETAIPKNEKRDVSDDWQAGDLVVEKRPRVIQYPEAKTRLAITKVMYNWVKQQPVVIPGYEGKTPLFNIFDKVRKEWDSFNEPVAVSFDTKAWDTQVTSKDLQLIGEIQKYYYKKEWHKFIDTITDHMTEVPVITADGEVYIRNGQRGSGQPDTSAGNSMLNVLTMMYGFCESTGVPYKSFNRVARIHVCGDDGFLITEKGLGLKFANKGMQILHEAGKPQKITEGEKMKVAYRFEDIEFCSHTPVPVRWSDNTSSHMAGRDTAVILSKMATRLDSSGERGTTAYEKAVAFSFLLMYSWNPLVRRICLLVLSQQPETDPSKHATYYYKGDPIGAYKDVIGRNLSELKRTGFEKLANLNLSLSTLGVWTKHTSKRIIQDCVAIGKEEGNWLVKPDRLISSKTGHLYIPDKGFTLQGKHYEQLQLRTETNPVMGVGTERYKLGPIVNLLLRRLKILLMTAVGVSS

SMILES strings stand for the structures.

The assay has as its target BVDV NS5B RNA-dependent RNA polymerase (Bovine viral diarrhea virus, UniProt P19711). As to conditions: read-out: Michaelis-Menten constant (Km).

Regarding `Nc1ccn([C@@H]2O[C@H](COP(=O)(O)OP(=O)(O)OP(=O)(O)O)[C@@H](O)[C@H]2O)c(=O)n1` [CTP], the Km – broadly, the concentration of substrate that gives half-maximal velocity – worked out at 0.03 µM.
